## Primary screen of a compound library

A: 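Phenotypic screen: M. tuberculosis growth, glucose 7H9 medium, 3 days; the read-out is not stated. Concentration: 50 µM. Higher reads as more growth inhibition (inferred: compounds with an IC50 in retests scored well above the rest). About 69,000 compounds were tested under these conditions; 1.1% (about 760) showed 50% or more at least once.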
B: 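Phenotypic screen: M. tuberculosis growth, cholesterol and DPPC medium, 4 days; the read-out is not stated. Tested at 50 µM. Direction is inferred from retests: higher values go with more growth inhibition. Of about 69,000 compounds tested this way, about 370 (0.54%) reached 50% or more in at least one test.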

Each number is a percent effect as filed. The controls that fix the scale are not given in the record; negative values are as filed. This is part of a subset picked to be rich in strong results. Two or more numbers in one place are separate tests of the same structure; such repeats can differ widely. A dash means the value is not listed here; it may have been measured.

compound | A | B
O=C1N(Cc2ccc(F)c(F)c2)CCCC12CCN(C1CCCCC1)C2 (configuration not stated) | 66.83 and 72.71 | 53.46
CN(CCc1ccccn1)C(=O)c1ccccc1F | 24.26 | -
O=C(c1cc(-c2ccco2)cs1)N1CCCC1 | 66.55 | -
COc1coc(CN2CCCC(CCc3ccc(F)c(F)c3)C2)cc1=O (configuration not stated) | 48.41 and 49.48 | 53.81
CN(CC(N)=O)S(=O)(=O)c1ccc(F)cc1F | 21.56 | -
CCCOc1cc(CNC(=O)Nc2cccc(C(C)=O)c2)ccn1 | 27.97 | 13.51
COC(=O)C(NC(=O)Nc1ccc(C(C)=O)cc1)C(C)C (configuration not stated) | 29.37 | 7.141
O=C(NCCSCc1ccco1)c1ccc(N2CCOCC2)cc1 | 5.63 and 9.511 | -
COc1cc(C(=O)NCCCc2ccccc2)on1 | 54.04 and 37.91 | 54.57
COc1cc(CNCCn2cc(C)cn2)cc2c1OCCO2 | 24.13 | 13.04
CCc1nnc(CN(C)c2cc(C)nc3c(C)c(C)nn23)o1 | 19.01 and 7.167 | 0.1354
CN1CCOC(CNCCOc2ccc(C#N)cc2)C1 (configuration not stated) | - | -11.15 and -3.97
O=C(NCCc1ccco1)Nc1cc(C(F)(F)F)c[nH]c1=O | 12.16 | 16.64
CCS(=O)(=O)N1CCC2(CCCN(Cc3cc(OC)ccc3F)C2)C1 (configuration not stated) | -4.535 and -25.18 | -
O=C(NCc1ccncc1)c1ccc(Cl)cc1F | 16.94 | -
COCc1noc(-c2ccc(N(C)Cc3cc(C)no3)nc2)n1 | 38.16 | 27.02
O=C(NCCc1ccccn1)C1(n2cnnn2)CCCCC1 | -27.23 | -14.74
CN(Cc1ccco1)C(=O)CN1CCN(C)c2ccccc2C1 | 8.043 | -8.417
Cc1noc(C(C)Nc2ccc3c(c2)CCC3)n1 (configuration not stated) | - | 68.3
COc1ccc(CN(C)Cc2c(C)noc2C)c(Cl)c1OC | -7.436 | -
CCN(CC)S(=O)(=O)c1ccc(CNC(=O)c2cc(C)on2)cc1 | - | 50.49
c1cc(CNc2nnc(Cc3ccsc3)o2)cs1 | 24.84 | 5.696
Cc1n[nH]c(C)c1CC(=O)NCCc1ccccc1 | -16.17 | -
CCC[C@H]1CN(Cc2ccc3c(c2)OCCO3)C[C@@H]1NC(=O)COC | - | -0.4831 and -2.139
Cc1cc(N(C)Cc2c(C)noc2C)n2nc(C)c(C)c2n1 | 12.71 and -1.511 | 3.229
CC(=O)NS(=O)(=O)c1ccc(F)c(C(F)(F)F)c1 | 15.15 and 0.9847 | -
Cc1nc(=O)c2ccccc2n1C1=CCN(CC(=O)NC(C)C)CC1 | 58.9 | -
c1cc(-c2noc([C@@H]3Cc4nc[nH]c4CN3)n2)ccn1 | -35.96 and 2.394 | -
COc1cnc(C2(O)CCN(C(=O)c3ccccn3)CC2)c(OC)n1 | - | 9.315
O=C(c1ccno1)N1CCCC(c2ncncc2-c2ccncc2)C1 (configuration not stated) | - | 69.39
Cc1cc(C)n(CCN2CCN(C(=O)c3ccc(Br)o3)CC2)n1 | 4.793 and 13.62 | -
CC(C)Oc1cccc(CN(C)C(=O)Cc2ccon2)c1 | 34.93 and -55.91 | -
COCCN(Cc1ccoc1)S(=O)(=O)c1ccc(F)c(Cl)c1 | - | 77.9
CNC(=O)c1cccc(NC(=O)c2ccnc(N(C)C)c2)c1C | 14.15 and 5.609 | 5.235
Cc1noc(NC(=O)c2ccc(C)c(F)c2)n1 | 94.51 | -
NC(=O)c1ccc(-n2ccnc2-c2cccc(O)c2)cc1N1CCCC1 | - | 74.73
CN(C)CCN1CCCC12CCN(C(=O)c1cccnc1)CC2.O=C(O)C(F)(F)F.O=C(O)C(F)(F)F | - | 8.975
COc1ccc(C[C@H]2CN(c3nnc(C)s3)CC[C@@H]2OC)cc1.O=C(O)C(F)(F)F | 55.78 | 57.7
CNc1oc(COc2ccc3c(c2)OCO3)nc1C#N | -6.656 | 15.64
O=C(CN1CCCC1Cn1cncn1)NCCOc1cccc(F)c1 (configuration not stated) | 58.47 | -
CN(C)c1ccc(NC(=O)c2cccc(N(C)C)c2)nc1 | -17.3 and -113.9 | -29
[H][C@@]12CCCO[C@]1([H])[C@H](NC(=O)C1CCC1)CN(Cc1ccoc1)C2 | - | -6.984
C[C@@H]1CN(c2nc3c(cc2C(N)=O)CCC3)C[C@@]1(O)C1CCC1 | 10.42 and 3.227 | -
CC(C)(C)c1noc(CCC(=O)N2CCNC(=O)C2)n1 | -17.42 and 5.529 | -
CCc1ccc(C(=O)N2CCN(c3nc(C)cc(OC)n3)CC2)o1 | 53.67 | -
O=C(NCC1(CO)CC1)c1ccccc1Cl | -0.0591 | -3.802
O=C(CCC(=O)N1CCc2[nH]c3ccccc3c2C1)NCc1ccco1 | -1.36 and -0.4311 | -
COc1ccc2cc(C(=O)NCCNc3ccc(C)nn3)[nH]c2c1 | -17.69 | -
O=C(NCC(O)c1ccc(F)cc1F)c1ccccc1F (configuration not stated) | 7.926 | -
COc1c(C)cnc(CN2CCCC2c2noc(C3CC3)n2)c1C (configuration not stated) | -16.05 | -
CCCc1ccc(OC23CCCN(CC2)C3)c(OC)c1 (configuration not stated) | 73.34 | 66.9
Cc1c(CNCc2nn(-c3ccccc3)c3c2CCC3)cc(C#N)n1C | 35.28 | -
CCCc1nc(N2CCCCCC2)c2c(n1)c(C)nn2CC | 24.41 and 68.07 | -
N#CC1CCCN(c2nc(-c3ccccc3)nc3c2CCNCC3)C1 (configuration not stated) | 25.46 | 11.15
COCc1noc(C2(c3ccc(F)cc3)CCC2)n1 | -5.787 and 7.403 | -
Cc1cnn(CC2CN(c3nc4ccccc4o3)CCO2)c1 (configuration not stated) | 20.15 | -
CN1CCCC(c2cccc(-c3cccc(C(F)(F)F)c3)n2)C1 (configuration not stated) | 64.12 | 54.47
COC(=O)C1CCN(C(=O)c2nnc3ccc(C)cc3n2)CC1 | 5.466 | -

The first 4 entries again:

| compound | A | B |
|---|---|---|
| `O=C1N(Cc2ccc(F)c(F)c2)CCCC12CCN(C1CCCCC1)C2` (configuration not stated) | 66.83 and 72.71 | 53.46 |
| `CN(CCc1ccccn1)C(=O)c1ccccc1F` | 24.26 | - |
| `O=C(c1cc(-c2ccco2)cs1)N1CCCC1` | 66.55 | - |
| `COc1coc(CN2CCCC(CCc3ccc(F)c(F)c3)C2)cc1=O` (configuration not stated) | 48.41 and 49.48 | 53.81 |

Source: ChEMBL document CHEMBL3988442, “University of Dundee, Small-Polar-MMV Screening Library” (2021).